Source: patent publication US20230045284

Legend:
[1] = biological target: T1, GST-RalA, P11233
T1 chain: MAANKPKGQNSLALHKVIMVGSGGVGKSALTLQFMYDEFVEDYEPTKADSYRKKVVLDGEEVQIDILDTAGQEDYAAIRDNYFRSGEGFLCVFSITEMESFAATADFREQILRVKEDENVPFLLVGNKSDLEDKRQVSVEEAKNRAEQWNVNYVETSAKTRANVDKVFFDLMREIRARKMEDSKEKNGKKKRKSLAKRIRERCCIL

[2] = biological target: GST-RhoA, P61586
[3] = biological target: GST-Cdc42, P60953

B1: Recombinant 6xHis-tagged DUF5Vv (rDUF5Vv; V. vulnificus CMCP6 MARTXVv Q3596-L4089) (protein)
chain: QELKERAKVFAKPIGASYQGILDQLDLVHQAKGRDQIAASFELNKKINDYIAEHPTSGRNQALTQLKEQVTSALFIGKMQVAQAGIDAIAQTRPELAARIFMVAIEEANGKHVGLTDMMVRWANEDPYLAPKHGYKGETPSDLGFDAKYHVDLGEHYADFKQWLETSQSNGLLSKATLDESTKTVHLGYSYQELQDLTGAESVQMAFYFLKEAAKKADPISGDSAEMILLKKFADQSYLSQLDSDRMDQIEGIYRSSHETDIDAWDRRYSGTGYDELTNKLASATGVDEQLAVLLDDRKGLLIGEVHGSDVNGLRFVNEQMDALKKQGVTVIGLEHLRSDLAQPLIDRYLATGVMSSELSAMLKTKHLDVTLFENARANGMRIVALDANSSARPNVQGTEHGLMYRAGAANNIAVEVLQNLPDGEKFVAIYGKAHLQSHKGIEGFVPGITHRLDLPALKVSDSNQFTVEQDDVSLRVVYDDVANKPKITFKGSL
Q: What does the source list for B1?
A: in vitro cleavage of rGST-GTPase, SDS-PAGE [1]: None of the other GTPase was cleaved by DUF5Vv; in vitro cleavage of rGST-GTPase, SDS-PAGE [2]: None of the other GTPase was cleaved by DUF5Vv; in vitro cleavage of rGST-GTPase, SDS-PAGE [3]: None of the other GTPase was cleaved by DUF5Vv
